From PubChem BioAssay AID449762 (Southern Research Specialized Biocontainment Screening …, 2010)
Records with an inconclusive call do not appear.

System: M. tuberculosis H37Rv growth inhibition, 7H9 media
Test: M. tuberculosis growth inhibition, HTS (AID 449762);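 also: bacterial growth assessed after seven days of incubation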
Details: measured here: IC90 growth inhibition

Row | SMILES | IC90 [µM]
1 | CN(C)C(=O)c1cc([N+](=O)[O-])cc2c1-c1c(cc([N+](=O)[O-])cc1[N+](=O)[O-])C2=O | 9.56
2 | O=[N+]([O-])c1cc([N+](=O)[O-])c(CCNc2ccccc2)c([N+](=O)[O-])c1 | 23.9
3 | CC(=O)NC(SC(=S)N(C)C)C(Cl)(Cl)Cl (stereo not drawn) | 29.5
